Measured values from several laboratories, pooled; numbers as filed in NIAID ChemDB.

Common to all: tests in culture; agent: HIV-1

ECn is the concentration giving n% inhibition of infection, replication or growth.

smiles,changes,method,cells,endpoint,strain,result
Nc1ccn([C@H]2CC[C@@H](CO)O2)c(=O)n1,,MTT / p24,C8166,EC50,IIIB,0.01 µM
Nc1ncnc2c1ncn2[C@H]1CC[C@@H](CO)O1,,antigen,MM + M/M,EC50,BaL,1 µM
C1CCNCCCNCCCNCCCN(CCCN2CCCNCCCNCCC2)CCCNCCCNCCCNC1,,cytopathic effect,MT-4,EC50,IIIB,7.7 µM
Cc1ccnc2c1NC(=O)c1cccnc1N2C1CC1,RT-A98S,cytopathic effect / MTT,MT-4,EC50,Recombinant mutant,0.037 µM
Cc1cc(C#N)cc(C)c1Oc1nc(NC2CCN(Cc3cccc(C(N)=O)c3)CC2)nc2sccc12,NNRTI-resistant (RT Y181C),MTT,MT-4,EC50,IIIB,0.00919 µM
COC(=O)[C@H](C)NP(=O)(OC[C@H]1O[C@@H](n2cc(C)c(=O)[nH]c2=O)C[C@@H]1N=[N+]=[N-])Oc1ccccc1,,MTT / p24,C8166,EC50,IIIB,0.08 µM
Cc1cn([C@H]2C[C@H](N=[N+]=[N-])[C@@H](CO)O2)c(=O)[nH]c1=O,,RT activity,CBMC,EC50,HXB2D,0.0033 µM
O=C1N(Cc2ccc(O)cc2)[C@H](Cc2ccccc2)[C@H](O)[C@@H](O)[C@@H](Cc2ccccc2)N1Cc1ccc(O)cc1,,hybridisation,MT-2,EC50,RF,<0.032 µM
CC(C)(C)NC(=O)[C@@H]1C[C@@H]2CCCC[C@@H]2CN1C[C@@H](O)[C@H](Cc1ccccc1)NC(=O)[C@H](CC(N)=O)NC(=O)c1ccc2ccccc2n1,,p24,MT-4,EC50,NL4-3,0.006 µM
Cc1ccnc2c1NC(=O)c1cccnc1N2C1CC1,RT-Y181C,syncytia,CEM,EC50,IIIB-Nevirapine(0.1)(RT-Y181C),4.1 µg/mL
COC(=O)[C@H](C)NP(=O)(OC[C@H]1O[C@@H](n2cc(C)c(=O)[nH]c2=O)C[C@@H]1N=[N+]=[N-])OCC(Cl)(Cl)Cl,,MTT / p24,C8166,EC50,IIIB,0.4 µM
CC(=O)c1ccc(C)cc1NC(C(N)=O)c1c(Cl)cccc1Cl,,syncytia,CEM,EC50,IIIB WT,0.017 µM
Cc1cn([C@@H]2O[C@H](CO[Si](C)(C)C(C)(C)C)C3(OS(=O)(=O)C=C3N)[C@H]2O)c(=O)[nH]c1=O,,cytopathic effect / trypan blue,MT-4,EC50,IIIB,>40 µM
CC(=O)c1ccccc1NC(C(N)=O)c1c(Cl)cccc1Cl,RT-P236L,p24,MT-4,EC90,DLV-resistant MF (RT-P236L),0.08 µM
Cc1cc(NS(=O)(=O)c2ccc([N+](=O)[O-])cc2)ccc1N1C(=O)c2ccc(Cl)cc2C1=O,,MTT / absorbance,MT-4,EC50,IIIB,0.003 µM
CC(C)(C)NC(=O)[C@@H]1C[C@@H]2CCCC[C@@H]2CN1C[C@@H](O)[C@H](Cc1ccccc1)NC(=O)[C@H](CC(N)=O)NC(=O)c1ccc2ccccc2n1,,virus yield,H9,EC50,IIIB,0.001 µg/mL
Cc1ccnc2c1NC(=O)c1cccnc1N2C1CC1,,XTT,MT-2,EC50,IIIB,0.1 µM
O=c1[nH]cnc2c1ncn2[C@H]1CC[C@@H](CO)O1,RT-I178L,p24,MT-2,EC50,NL4-3,0.16 µM
CC(=S)Nc1ccc(N2C(=O)c3ccc(Cl)cc3C2=O)c(C)c1,,MTT / absorbance,MT-4,EC50,IIIB,0.099 µM
CCNC(=S)N/N=C(\c1ccccc1)c1ccccn1,(delta)vpr,luciferase,CEM,EC50,VSV-G-pseudotyped NL4-3,0.075 µM
C=C(COCP(=O)(O)O)Cn1cnc2c(=O)[nH]c(N)nc21,,,CEM,EC50,HE,19.5 µM
Cc1ccc(C(=O)NC(C)(C)C)c(C[C@@H](O)[C@H](Cc2ccccc2)NC(=O)[C@H](CC(N)=O)NC(=O)c2ccc3ccccc3n2)c1,,cytopathic effect / XTT,CEM + CEM-SS,EC50,RF,0.61 µM
O=C1N(Cc2cccc(Cl)c2)[C@H](Cc2ccccc2)[C@H](O)[C@@H](O)[C@@H](Cc2ccccc2)N1Cc1cccc(Cl)c1,,hybridisation,MT-2,EC50,RF,<1.3 µM
Cc1ccc(C[C@@H](O)[C@H](Cc2ccccc2)NC(=O)[C@H](CC(N)=O)NC(=O)c2ccc3ccccc3n2)c(C(=O)NC(C)(C)C)c1,,cytopathic effect / XTT,CEM + CEM-SS,EC50,RF,0.02 µM
C1CCNCCCNCCCN(CCCN2CCCNCCCCNCCCN(CCCN3CCCNCCCNCCCCNCCCNCCC3)CCCNCCCCNCCC2)CCCNCCCNC1,,cytopathic effect,MT-4,EC50,IIIB,2.3 µM
Nc1ncnc2c1ncn2CCOCP(=O)(O)O,RT-K65R,p24,MT-2,EC50,LAI,>60 µM
CCn1c(=O)c(C)cn([C@@H]2O[C@H](CO[Si](C)(C)C(C)(C)C)C3(OS(=O)(=O)C=C3N)[C@H]2O[Si](C)(C)C(C)(C)C)c1=O,RT-E138A S162C E169D T200A L214F,cytopathic effect / MTT,MT-4,EC50,HXB2 (RT E138A S162C E169D T200A L214F) Clinical isolate,1.618 µM
Cc1cc(C#N)cc(C)c1Oc1nc(Nc2ccc(C#N)cc2)nc(N)c1Br,NNRTI-resistant (RT Y188L),MTT,MT-4,EC50,IIIB,0.0205 µM
C1CCNCCCNCCCN(CCCN2CCCNCCCNCCCCNCCCNCCCCNCCCNCCC2)CCCNCCCNCCCCNCCCNC1,,cytopathic effect,MT-4,EC50,IIIB,1.3 µM
Nc1ncnc2c1ncn2CCOCP(=O)(O)O,RT-Y181C,syncytia,CEM,EC50,IIIB-Nevirapine(0.1)(RT-Y181C),8.5 µM
COC(=O)[C@H](C)NP(=O)(OC[C@@H]1O[C@H](n2ccc(N)nc2=O)CS1)Oc1ccccc1,,antigen,MM + M/M,EC90,BaL,0.18 µM
Cc1cn([C@H]2C[C@H](N=[N+]=[N-])[C@@H](CO)O2)c(=O)[nH]c1=O,NNRTI-resistant (RT E138K),MTT,MT-4,EC50,IIIB,0.0073 µM
O=c1[nH]cnc2c1ncn2[C@H]1CC[C@@H](CO)O1,,syncytia,JM,EC50,GB8,3.2 µM
Cc1cn([C@@H]2O[C@H](CO[Si](C)(C)C(C)(C)C)C3(OS(=O)(=O)C=C3N)[C@H]2O[Si](C)(C)C(C)(C)C)c(=O)n(C)c1=O,,p24,Monocytes/macrophages,EC50,BaL,0.162 µM
CCOCn1c(Cc2ccccc2)c(C(C)C)c(=O)[nH]c1=O,,ELISA,CEM,EC50,IIIB,0.03 µM
COC(=O)[C@H](C)NP(=O)(OC[C@H]1O[C@@H](n2cc(C)c(=O)[nH]c2=O)C[C@@H]1N=[N+]=[N-])Oc1ccccc1,,antigen,MM + M/M,EC50,BaL,0.012 µM
S=C(N/N=C(/c1ccccc1)c1ccccn1)Nc1ccccc1,(delta)vpr,luciferase,CEM,EC50,VSV-G-pseudotyped NL4-3,0.34 µM
Cc1cn([C@H]2C[C@H](N=[N+]=[N-])[C@@H](CO)O2)c(=O)[nH]c1=O,,RT activity,PBMC,EC50,WEJO,0.02 µM
Cc1cn([C@@H]2O[C@H](CO[Si](C)(C)C(C)(C)C)C3(OS(=O)(=O)C=C3N)[C@H]2O[Si](C)(C)C(C)(C)C)c(=O)n(C)c1=O,RT-A98S E138A,cytopathic effect / MTT,MT-4,EC50,Recombinant mutant,0.315 µM
COC(=O)CCC/C=C(\c1ccc(OC)c(C(=O)OC)c1)c1cc(Cl)c(OC)c(C(=O)OC)c1,,,CEM + CEM-SS,EC50,RF,0.08 µM
Cc1cc(C#N)cc(C)c1Oc1nc(NC2CCC(NCc3ccc(Br)cc3)CC2)nc2ccsc12,NNRTI-resistant (RT L100I),MTT,MT-4,EC50,IIIB,≥1.4 µM
C1CCNCCCN(CCC[N+]2(CCCN3CCCNCCCCNCCCNCCCNCCCNCCCCNCCC3)CCCNCCCCNCCCNCCCNCCCNCCCCNCCC2)CCCNCCCCNCCCNCCCNCCCNC1,,cytopathic effect,MT-4,EC50,IIIB,0.94 µM
O=C1N(Cc2ccncc2)[C@H](Cc2ccccc2)[C@H](O)[C@@H](O)[C@@H](Cc2ccccc2)N1Cc1ccncc1,,hybridisation,MT-2,EC50,RF,<98 µM
C1CNCCCN(CCCN2CCCNCCCNCCC2)CCCNC1,,cytopathic effect,MT-4,EC50,IIIB,204 µM
CCOC(=O)C1CN(Cc2ccc(S(N)(=O)=O)cc2)CCC1Nc1nc(Oc2c(C)cc(C#N)cc2C)c2sccc2n1,NNRTI-resistant (RT Y181C),MTT,MT-4,EC50,IIIB,0.186 µM
CCCc1cc(=O)oc2c3c(c4c(c12)OC(C)(C)C=C4)O[C@H](C)[C@@H](C)[C@@H]3O,,RT activity,PBMC,EC50,WEJO,0.03 µM
CC(C)(C)NC(=O)[C@@H]1C[C@@H]2CCCC[C@@H]2CN1C[C@@H](O)[C@H](Cc1ccccc1)NC(=O)[C@H](CC(N)=O)NC(=O)c1ccc2ccccc2n1,,RT activity,MT-2,EC50,IIIB,0.013 µM
CC(C)=CCN1Cc2cc(Cl)cc3[nH]c(=S)n(c23)C[C@@H]1C,RT-Y181C,syncytia,CEM,EC50,IIIB-TSAO-m3T(10)(RT-Y181C),0.3 µg/mL
Nc1ncnc2c1ncn2CCOCP(=O)(O)O,,,CEM,EC50,HE,30 µM
O=C1N(Cc2ccc3ccccc3c2)[C@H](Cc2ccccc2)[C@H](O)[C@@H](O)[C@@H](Cc2ccccc2)N1C1CCCC1,,hybridisation,MT-2,EC50,RF,<0.66 µM
COc1ccc2c(c1)N(C(=O)OC(C)C)[C@@H](CSC)C(=S)N2,,recombinant virus assay,,EC50,HXB2,0.0027 µM
Nc1nc(=O)n([C@@H]2CO[C@H](CO)S2)cc1F,RT-M184V,RT activity,CBMC,EC50,HXB2D (RT-M184V),9 µM
CCc1cc(NCc2nc3c(Cl)ccc(Cl)c3o2)c(=O)[nH]c1C,RT-L100I,syncytia,CEM,EC50,IIIB-TIBO(0.5)(RT-L100I),0.51 µg/mL
Nc1ccn([C@H]2CC[C@@H](CO)O2)c(=O)n1,,p24,U-937,EC50,BRU,0.04 µM
CC(C)(C)[Si](C)(C)OC[C@H]1O[C@@H](n2ccc(=O)[nH]c2=O)[C@H](O[Si](C)(C)C(C)(C)C)C12OS(=O)(=O)C=C2N,,cytopathic effect / trypan blue,MT-4,EC50,HE,0.687 µM
COC(=O)[C@H](C)NP(=O)(OC[C@@H]1C=C[C@H](n2cnc3c(N)ncnc32)O1)Oc1ccccc1,,antigen,MM + M/M,EC50,BaL,0.008 µM
COC(=O)C(C)NP(=O)(OC[C@H]1O[C@@H](n2cc(C)c(=O)[nH]c2=O)C[C@@H]1N=[N+]=[N-])Oc1ccc([N+](=O)[O-])cc1,,MTT / p24,C8166,EC50,IIIB,0.03 µM
Nc1nc(=O)n([C@H]2CO[C@@H](CO)S2)cc1F,RT-M41L K70R T215Y,RT activity,CBMC,EC50,4242 (RT-M41L K70R T215Y),0.25 µM
Nc1nc2c(ncn2[C@H]2CO[C@@H](CO)O2)c(=O)[nH]1,RT-D67N K70R T215Y K219Q K65R,p24,MT-2,EC50,LAI,1.4 µM
CC[C@H](C)[C@@H](C(=O)O)n1sc2ccccc2c1=O,,p24 / RT activity,MT-4,EC50,LAV-Bru,3.2 µM
Cc1cn([C@H]2C=C[C@@H](CO)O2)c(=O)[nH]c1=O,,syncytia,CEM,EC50,IIIB,0.35 µM
CCCc1cc(=O)oc2c3c(c4c(c12)OC(C)(C)C=C4)O[C@@H](C)[C@H](C)[C@@H]3O,RT-Y181C,XTT,CEM + CEM-SS,EC50,NL4-3,0.02 µM
Nc1ccn([C@H]2CC[C@@H](CO)O2)c(=O)n1,,RT activity,MT-4,EC50,HXB2D,0.065 µM
O=C1N(Cc2cccc(F)c2)[C@H](Cc2ccccc2)[C@H](O)[C@@H](O)[C@@H](Cc2ccccc2)N1Cc1cccc(F)c1,,hybridisation,MT-2,EC50,RF,<0.71 µM
CC(=O)Nc1ccc(N2C(=O)c3ccc(Cl)cc3C2=O)c(C)c1,,MTT / absorbance,MT-4,EC50,IIIB,0.033 µM
Cc1cn([C@H]2C[C@H](N=[N+]=[N-])[C@@H](CO)O2)c(=O)[nH]c1=O,RT-D67N K70R T215Y K219Q L74V,p24,MT-2,EC50,LAI,0.019 µM
Cc1cc(NC(=O)c2ccc(Cl)cc2)ccc1N1C(=O)c2ccc(Cl)cc2C1=O,,MTT / absorbance,MT-4,EC50,IIIB,0.022 µM
COc1ccc2c(c1)N(C(=O)OC(C)C)[C@@H](CSC)C(=S)N2,RT-E138A S162C E169D T200A L214F,cytopathic effect / MTT,MT-4,EC50,HXB2 (RT E138A S162C E169D T200A L214F) Clinical isolate,0.00312 µM

A second listing of 4 rows from above:

smiles | changes | method | cells | endpoint | strain | result
O=C1N(Cc2ccc3ccccc3c2)[C@H](Cc2ccccc2)[C@H](O)[C@@H](O)[C@@H](Cc2ccccc2)N1C1CCCC1 |  | hybridisation | MT-2 | EC50 | RF | <0.66 µM
C1CCNCCCNCCCNCCCN(CCCN2CCCNCCCNCCC2)CCCNCCCNCCCNC1 |  | cytopathic effect | MT-4 | EC50 | IIIB | 7.7 µM
CCc1cc(NCc2nc3c(Cl)ccc(Cl)c3o2)c(=O)[nH]c1C | RT-L100I | syncytia | CEM | EC50 | IIIB-TIBO(0.5)(RT-L100I) | 0.51 µg/mL
CC[C@H](C)[C@@H](C(=O)O)n1sc2ccccc2c1=O |  | p24 / RT activity | MT-4 | EC50 | LAV-Bru | 3.2 µM

Conditions beyond the fields shown may differ between rows. An empty or dashed field is not shown.